A mixed list of measured activities; the numbers were collected in NIAID ChemDB.

All rows: tests in culture; organism: Candida albicans

A number after MIC or MFC names an inhibition level or a share of isolates. Blank or dashed fields: not listed here. Neighbouring rows are from separate reports.

| smiles | read-out | strain or isolate | method | value |
|---|---|---|---|---|
| CCC(C)CC(C)CCCCCCCCC(=O)NC1CCCNC(=O)[C@@H]2[C@@H](O)[C@@H](C)CN2C(=O)[C@H]([C@H](O)CC(N)=O)NC(=O)[C@H](CCc2ccc(O)cc2)NC(=O)[C@@H]2C[C@@H](O)CN2C(=O)[C@H]([C@@H](C)O)NC1=O | MFC | MY1055 | - | 0.5 µg/mL |
| CCCCCOc1ccc(-c2ccc(-c3ccc(C(=O)N[C@H]4CCCNC(=O)C5C[C@H](N)CN5C(=O)C(CN)NC(=O)C(CCc5ccc(O)cc5)NC(=O)C5C[C@@H](O)CN5C(=O)C(C(C)O)NC4=O)cc3)cc2)cc1 | MIC | ATCC CCH442 | - | 0.39 µg/mL |
| CC1(c2ccccc2Cl)OCC(CO/N=C(\Cn2ccnc2)c2ccc(Cl)cc2)O1 | MIC | - | - | ≤10 µg/mL |
| NCCCOc1ccc(C[C@H](N)C(=O)N[C@H]2[C@@H](O)[C@H](n3cnc4c(N)ncnc43)O[C@@H]2C(=O)O)cc1 | MIC | FP633 | - | >100 µg/mL |
| C=C1C[C@@H]2C[C@@H]3CCO[C@@H](O3)c3cccc(c3)/C=C/C[C@H]3O[C@@H](/C(C)=C/C#N)[C@H](C)[C@@H](OC(=O)/C=C/C[C@@H](C1)O2)[C@H]3C | MIC | ATCC 14503 | broth dilution | >64 µg/mL |
| N/C(=N/N=C1CCCC1)SCc1ccc(Cl)cc1Cl | MIC | - | - | >200 µg/mL |
| C[C@@H](n1ccn(-c2ccc(F)cc2)c1=O)C(O)(Cn1cncn1)c1ccc(F)cc1F | MIC | TIMM1756 | - | <0.016 µg/mL |
| C=C1C[C@@H]2C[C@@H]3CCO[C@@H](O3)c3coc(n3)/C=C/C[C@H]3O[C@@H](/C(C)=C/I)[C@H](C)[C@@H](OC(=O)/C=C/C[C@@H](C1)O2)[C@H]3C | MIC | ATCC 14503 | broth dilution | >64 µg/mL |
| N=C(N)c1ccc(OCCCC(O)COc2ccc(C(=N)N)cc2)cc1 | MIC80 | 103.96 | - | 12.5 µg/mL |
| CC(=O)OC1C(=O)N2CCCS(=O)C12c1ccccc1 | MIC | SH/T54 | - | 20.47 µM |
| CCC(C)CC(C)CCCCCCCCC(=O)NC1CCCNC(=O)[C@@H]2[C@@H](O)[C@@H](C)CN2C(=O)[C@H]([C@H](O)CC(N)=O)NC(=O)[C@H](C(O)[C@H](O)c2ccc(O)cc2)NC(=O)[C@@H]2C[C@@H](O)CN2C(=O)[C@H]([C@@H](C)O)NC1=O | MFC | MY1208 | - | 1 µg/mL |
| C=C1C[C@@H]2C[C@@H]3CCO[C@@H](O3)c3cccc(c3)/C=C/C[C@H]3O[C@@H](/C(C)=C/I)[C@H](C)[C@@H](OC(=O)/C=C/C[C@@H](C1)O2)[C@H]3C | MIC | ATCC 14503 | broth dilution | >64 µg/mL |
| CC1(c2ccc(Cl)cc2Cl)OCC(CO/N=C(\Cn2ccnc2)c2ccc(Cl)cc2Cl)O1 | MIC | - | - | ≤10 µg/mL |
| C[C@@H]1[C@H](O)[C@@H](C)/C=C/C=C/C=C/C=C/C=C/C=C/C=C/[C@H](OC2O[C@H](C)[C@@H](O)[C@H](N(CCCN)CCCN)[C@@H]2O)C[C@@H]2O[C@](O)(C[C@@H](O)C[C@@H](O)[C@H](O)CC[C@@H](O)C[C@@H](O)CC(=O)O[C@H]1C)C[C@H](O)[C@H]2C(=O)NCC[N+](C)(C)C | MIC | CAF2-1 | - | 1.4 µM |
| N=C(N)c1ccc2nc(CCCc3nc4ccc(C(=N)N)cc4[nH]3)[nH]c2c1 | MIC80 | A39 | - | >100 µg/mL |
| C[C@@H](N1CCN(c2ccc(C(F)(F)F)cc2)C1=O)C(O)(Cn1cncn1)c1ccc(F)cc1F | MIC | TA | - | <0.016 µg/mL |
| CCCCCCCCOc1ccc(N2CCN(c3ccc(C(=O)N[C@H]4CCCNC(=O)C5C[C@H](N)CN5C(=O)C(C(C)O)NC(=O)C(OCc5ccncc5)NC(=O)C5CCCN5C(=O)C(C(C)O)NC4=O)cc3)CC2)cc1 | MIC | ATCC 10231 | - | 1.56 µg/mL |
| COc1ccc(C[C@H](N)C(=O)N[C@H]2[C@@H](O)[C@H](n3cnc4c(N)ncnc43)O[C@@H]2C(=O)NCC(=O)O)cc1 | MIC | FP633 | - | 6.2 µg/mL |
| COc1cc(/C=C2\C=C(c3ccc(Oc4ccccc4)cc3)OC2=O)cc(OC)c1OC | MIC | - | - | >100 µg/mL |
| C=C1C[C@@H]2C[C@@H]3CCO[C@@H](O3)c3cccc(c3)/C=C\C[C@H]3O[C@@H](/C(C)=C/C#N)[C@H](C)[C@@H](OC(=O)/C=C/C[C@@H](C1)O2)[C@H]3C | MIC | ATCC 14503 | broth dilution | >64 µg/mL |
| NCCNC(=O)C1=Nc2ccc(NC(=O)C3=Nc4ccc(C(=O)Nc5ccc6[nH]c(C(=O)NCCN)cc6c5)cc4C3)cc2C1 | MIC | - | - | 2 µg/mL |
| c1ccc(-c2csc(NN=C3CCCCCCC3)n2)cc1 | MFC | - | - | 6.25 µg/mL |
| COC(=O)c1ccc(N2C(=O)C(OC(C)=O)C2c2ccc(C)cc2)cc1 | MIC | SH/T54 | - | 142 µM |
| O[C@](Cn1cncn1)(Cn1cnc(/C=C/c2ccc(OCC(F)(F)C(F)F)cc2)n1)c1ccc(F)cc1F | MIC | CA033 | - | 1.8 µM |
| CC(=O)O[C@@H]1C(=O)N(c2ccc(C(=O)O)cc2)[C@H]1c1ccccc1 | MIC | SH/T54 | - | 76.91 µM |
| O=C1/C(=C/c2cccc([N+](=O)[O-])c2)C=C(c2ccc(Oc3ccccc3)cc2)N1Cc1ccccc1 | MIC | - | - | >100 µg/mL |
| CC1(c2ccc(Cl)cc2)OCC(CO/N=C(\Cn2ccnc2)c2ccc(Cl)cc2Cl)O1 | MIC | - | - | ≤10 µg/mL |
| N/C(=N/N=C1CCCCCCC1)SCc1cccc(Cl)c1 | MFC | - | - | >200 µg/mL |
| Nc1ncnc2c1ncn2[C@@H]1O[C@H](C(=O)O)[C@@H](NC(=O)[C@H](N)CSCc2ccc(CN3CCOCC3)cc2)[C@H]1O | MIC | FP633 | - | 25 µg/mL |
| c1cc2nc(CCCCc3nc4ccc(C5=NCCN5)cc4[nH]3)[nH]c2cc1C1=NCCN1 | MFC | A39 | - | >100 µg/mL |
| N/C(=N/N=C1CCCCCCC1)SCc1ccccc1 | MFC | - | - | >200 µg/mL |
| C[C@@H](n1ccn(-c2ccc(OC(F)(F)C(F)F)cc2)c1=O)C(O)(Cn1cncn1)c1ccc(F)cc1F | MIC | TIMM1756 | - | <0.016 µg/mL |
| C[C@@H]1[C@H](O)[C@@H](C)/C=C/C=C/C=C/C=C/C=C/C=C/C=C/[C@H](OC2O[C@H](C)[C@@H](O)[C@H](NCCCN)[C@@H]2O)C[C@@H]2O[C@](O)(C[C@@H](O)C[C@@H](O)[C@H](O)CC[C@@H](O)C[C@@H](O)CC(=O)O[C@H]1C)C[C@H](O)[C@H]2C(=O)O | MIC | CAF2-1 | - | 0.1 µM |
| CCCCCOc1ccc(-c2ccc(-c3ccc(C(=O)N[C@H]4CCCNC(=O)[C@@H]5C[C@H](N)CN5C(=O)[C@H](CC)NC(=O)C(CCc5ccc(O)cc5)NC(=O)[C@@H]5C[C@@H](O)CN5C(=O)[C@H]([C@@H](C)O)NC4=O)cc3)cc2)cc1 | MIC | ATCC 62376 | - | 0.1 µg/mL |
| c1ccc(-c2csc(NN=C3CCCC3)n2)cc1 | MFC | - | - | 3.12 µg/mL |
| CSC[C@H](N)C(=O)N[C@H]1[C@@H](O)[C@H](n2cnc3c(N)ncnc32)O[C@@H]1C(=O)O | MIC | FP633 | - | >100 µg/mL |
| CC(=O)OC1C(=O)N2CCCSC12c1ccccc1 | MIC | SH/T54 | - | 45.12 µM |
| c1ccc(-c2csc(NN=C3CCCCCC3)n2)cc1 | MIC | - | - | 0.78 µg/mL |
| CCCCCCCCN[C@H]1C[C@H]2C(=O)NCCC[C@H](NC(=O)c3ccc(-c4ccc(-c5ccc(OCCCCC)cc5)cc4)cc3)C(=O)N[C@@H]([C@@H](C)O)C(=O)N3C[C@H](O)C[C@H]3C(=O)N[C@@H](CCc3ccc(O)cc3)C(=O)N[C@@H]([C@@H](C)O)C(=O)N2C1 | MIC | ATCC 62376 | - | 6.25 µg/mL |
| COc1ccc(C=NC2C3CC4CC(C3)CC2C4)c(Cl)c1OC | MIC | - | - | 64 µg/mL |
| Nc1ncnc2c1ncn2[C@@H]1O[C@H](C(=O)O)[C@@H](NC(=O)C(N)Cc2cccc(Cl)c2)[C@H]1O | MIC | FP633 | - | 3.1 µg/mL |
| CC(=O)OC1C(=O)N(c2ccccc2)C1c1ccc2c(c1)OCO2 | MIC | SH/T54 | - | 154 µM |
| N/C(=N/N=C1CCCCCCC1)SCc1ccccc1Cl | MIC | - | - | >200 µg/mL |
| C[C@@H](n1ccn(-c2ccc(C(F)(F)F)cc2)c1=O)C(O)(Cn1cncn1)c1ccc(F)cc1F | MIC | TA | - | <0.016 µg/mL |
| NCCC(=O)N[C@H]1[C@@H](O)[C@H](n2cnc3c(N)ncnc32)O[C@@H]1C(=O)O | MIC | FP633 | - | >100 µg/mL |
| C[C@@H]1[C@H](O)[C@@H](C)/C=C/C=C/C=C/C=C/C=C/C=C/C=C/[C@H](OC2O[C@H](C)[C@@H](O)[C@H](N(CCCN)CCCN)[C@@H]2O)C[C@@H]2O[C@](O)(C[C@@H](O)C[C@@H](O)[C@H](O)CC[C@@H](O)C[C@@H](O)CC(=O)O[C@H]1C)C[C@H](O)[C@H]2C(=O)O | MIC | DSY654 | - | 0.1 µM |
| C=C1C[C@@H]2C[C@@H]3CCO[C@@H](O3)c3coc(n3)/C=C/C[C@H]3O[C@@H](/C(C)=C/I)[C@H](C)[C@@H](OC(=O)/C=C\C[C@@H](C1)O2)[C@H]3C | MIC | 96-489 | broth dilution | >64 µg/mL |
| Nc1ncnc2c1ncn2[C@@H]1O[C@H](C(=O)O)[C@@H](NC(=O)C(N)Cc2ccccc2Cl)[C@H]1O | MIC | FP633 | - | 12.5 µg/mL |
| COc1ccc(C=NC23CC4CC(CC(C4)C2)C3)c(Cl)c1OC | MIC | - | - | 64 µg/mL |
| Nc1[nH]c(=O)ncc1F | MIC | 2913 | - | 0.25 µg/mL |
| CCCCCCCCCCCCOc1ccc(N2CCN(c3ccc(C(=O)N[C@H]4CCCNC(=O)C5C[C@H](N)CN5C(=O)C(C(C)O)NC(=O)C(CCc5ccc(O)cc5)NC(=O)C5C[C@@H](O)CN5C(=O)C(C(C)O)NC4=O)cc3)CC2)cc1 | MIC | ATCC 10231 | - | 0.78 µg/mL |
| O=C1C(O)C(c2cccc3ccccc23)N1c1ccc(Br)cc1 | MIC | SH/T54 | - | 154 µM |
| Clc1ccc(/C(Cn2ccnc2)=N/OCC2COC(Cn3cncn3)(c3ccc(Cl)cc3Cl)O2)c(Cl)c1 | MIC | - | - | ≤5 µg/mL |
| O=C1OC(c2ccc(Oc3ccccc3)cc2)=C/C1=C\c1ccc(Cl)cc1 | MIC | - | - | >100 µg/mL |
| CC(C)(O)c1cn(-c2ccc(Cl)cc2)nn1 | MIC | URM 3716 | broth dilution | 256 µg/mL |
| CSCCCC(N)C(=O)N[C@H]1[C@@H](O)[C@H](n2cnc3c(N)ncnc32)O[C@@H]1C(=O)O | MIC | FP633 | - | 25 µg/mL |
| O=C1/C(=C/c2cccs2)C=C(c2ccc(Oc3ccccc3)cc2)N1Cc1ccccc1 | MIC | - | - | 25 µg/mL |
| CCC(C)CC(C)CCCCCCCCC(=O)N[C@H]1C[C@H](O)[C@@H](O)NC(=O)[C@@H]2[C@@H](O)[C@@H](O)CN2C(=O)[C@H]([C@H](O)CC(N)=O)NC(=O)[C@H](C(O)[C@H](O)c2ccc(O)cc2)NC(=O)[C@@H]2C[C@@H](O)CN2C(=O)[C@H]([C@@H](C)O)NC1=O | MFC | MY1055 | - | 1 µg/mL |

For reference, 5 entries again:

smiles,read-out,strain or isolate,method,value
N=C(N)c1ccc(OCCCC(O)COc2ccc(C(=N)N)cc2)cc1,MIC80,103.96,-,12.5 µg/mL
COc1ccc(C=NC2C3CC4CC(C3)CC2C4)c(Cl)c1OC,MIC,-,-,64 µg/mL
O=C1/C(=C/c2cccs2)C=C(c2ccc(Oc3ccccc3)cc2)N1Cc1ccccc1,MIC,-,-,25 µg/mL
CC(=O)OC1C(=O)N2CCCSC12c1ccccc1,MIC,SH/T54,-,45.12 µM
CC(=O)OC1C(=O)N(c2ccccc2)C1c1ccc2c(c1)OCO2,MIC,SH/T54,-,154 µM